Measured values from several laboratories, pooled; numbers as filed in NIAID ChemDB.

Shared fields: growth or infection tests; organism: HIV-1; cells: MT-4; read-out: EC50

ECn: concentration that inhibits the pathogen or its effect by n%.

Cc1ccnc2c1NC(=O)c1cccnc1N2C1CC1 ; changes: RT-L74V A98G ; value: <3 µM
CC1(C)CN=C2c3ccccc3SC(=N)N2C1 ; strain or isolate: IIIB ; method: MTT ; value: 2.3 µM
CCc1c(Cc2ccccc2)nc(OC)[nH]c1=O ; strain or isolate: IIIB ; method: MTT / virus yield ; value: <157 µM
Cc1nc(CCCCCCC(=O)c2ccccc2)n2nc(-n3nccn3)ccc12 ; strain or isolate: RF ; method: cytopathic effect ; value: >260 µM
CC1CN=C2c3ccccc3SC(=N)N2C1 ; strain or isolate: IIIB ; method: MTT ; value: 1 µM
Cc1cc(C)c(Oc2ncc([N+](=O)[O-])c(Nc3ccc(C#N)cc3)n2)c(C)c1 ; strain or isolate: RES056 ; method: MTT ; value: ≥252 µM
Cc1cc(O)cc(S(=O)(=O)c2cccc(N)c2C#N)c1 ; strain or isolate: IIIB ; method: cytopathic effect ; value: 0.09 µM
Cc1nc(CCCCCCC(=O)c2ccccc2)n2nc(N(C)C)ccc12 ; strain or isolate: RF ; method: cytopathic effect ; value: 1.8 µM
Cc1cc(C#N)cc(C)c1Oc1ncc(NC(=O)C(F)(F)F)c(Nc2ccc(C#N)cc2)n1 ; strain or isolate: RES056 ; method: MTT ; value: 5.06 µM
C[C@H](CC(=O)C[C@@H](C)[C@H]1CC(=O)[C@@]2(C)C3=C(C(=O)C[C@]12C)[C@@]1(C)CCC(=O)C(C)(C)[C@@H]1C[C@@H]3O)C(=O)O ; method: cytopathic effect / microscopy ; value: >1000 µM
CC(C)CN(C[C@@H](O)[C@H](Cc1ccccc1)NC(=O)[C@H](CC(N)=O)NC(=O)c1ccc2ccccc2n1)C(=O)NC(C)(C)C ; strain or isolate: NL4-3 ; changes: PR-L10R L63P V82T I84V ; method: p24 ; value: <0.8 µM
N#Cc1ccc(Nc2nc(Oc3c(Cl)cc(Cl)cc3Cl)ncc2N)cc1 ; strain or isolate: RES056 ; method: MTT ; value: 2.82 µM
CCOc1cc(C)cc(S(=O)(=O)c2cccc(N)c2C#N)c1 ; strain or isolate: IIIB ; method: cytopathic effect ; value: 0.43 µM
O=c1[nH]cnc2c1ncn2[C@H]1CC[C@@H](CO)O1 ; strain or isolate: RF ; method: cytopathic effect / MTT ; value: 13 µM
Cc1cc(Br)cc(C)c1Oc1ncc(N)c(Nc2ccc(C#N)cc2)n1 ; strain or isolate: RES056 ; method: MTT ; value: 4.89 µM
COc1ccc(-c2ccc3c(c2)SC(=N)N2CCCN=C32)cc1OC ; strain or isolate: IIIB ; method: MTT ; value: 1.2 µM
Cc1cn([C@H]2C[C@H](N=[N+]=[N-])[C@H](CO)O2)c(=O)[nH]c1=O ; strain or isolate: IIIB ; method: MTT / syncytia ; value: >1000 µM
Cc1cccc(C)c1OCC(=O)N[C@@H](Cc1ccccc1)[C@@H](O)C[C@H](Cc1ccccc1)NC(=O)[C@H](C(C)C)N1CCCNC1=O ; strain or isolate: NL4-3 ; method: p24 ; value: 0.035 µM
CO[P@](=O)(c1cc(C)cc(/C=C/C#N)c1)c1c(C(N)=O)[nH]c2ccc(Cl)c(F)c12 ; strain or isolate: BH10 ; value: 0.0003 µM
COc1cc(C)c(C(=O)O)c(O)c1C/C=C(\C)CC/C=C(\C)CCC=C(C)C ; value: >53 µM
Cc1cc(Cl)cc(S(=O)(=O)c2cccc(N)c2C#N)c1 ; strain or isolate: IIIB ; method: cytopathic effect ; value: 0.02 µM
O=C1C(=O)N(Cc2ccccc2)C(Sc2ccccc2)C(O)C(Sc2ccccc2)N1Cc1ccccc1 ; value: 0.5 µM
CC(=O)Nc1cnc(Oc2c(C)cc(C#N)cc2C)nc1Nc1ccc(C#N)cc1 ; strain or isolate: IIIB ; method: MTT ; value: 1.86 µM
C[C@H](CCC=C(CO)CO)[C@H]1CC[C@@]2(C)C3=CC[C@H]4C(C)(C)C(=O)CC[C@]4(C)C3=CC[C@]12C ; method: cytopathic effect / microscopy ; value: <7.8 µM
COc1cc(C(F)(F)F)cc(S(=O)(=O)c2cccc(N)c2C#N)c1 ; strain or isolate: IIIB ; method: cytopathic effect ; value: 0.05 µM
N=C1Sc2cc(-c3cc4ccccc4o3)ccc2C2=NCCCN12 ; strain or isolate: IIIB ; method: MTT ; value: 1.4 µM
N#Cc1c(N)cccc1S(=O)(=O)c1cccc(C(F)(F)F)c1 ; strain or isolate: IIIB ; method: cytopathic effect ; value: 80 µM
Cc1nc(CCCCCC(=O)c2ccccc2)n2nc(Cl)ccc12 ; strain or isolate: RF ; method: cytopathic effect ; value: >250 µM
CC(C)[C@@H](C)/C=C/[C@@H](C)[C@H]1CCC2[C@@]34C=C[C@]5(C[C@@H](O)CC[C@]5(C)C3CC[C@@]21C)OO4 ; method: cytopathic effect / microscopy ; value: >15.6 µM
Cc1nc(CCCCCOC(=O)c2ccccc2)n2nc(Cl)ccc12 ; strain or isolate: RF ; method: cytopathic effect ; value: 0.78 µM
NC(=O)P(=O)(O)OCC1O[C@H](n2ccc(N)nc2=O)CS1 ; strain or isolate: GKV-4046 ; method: p24 / ELISA ; value: 29.7 µM
CC(=O)Nc1cnc(Oc2c(Br)cc(Br)cc2Br)nc1Nc1ccc(C#N)cc1 ; strain or isolate: RES056 ; method: MTT ; value: >119 µM
N#Cc1ccc(S(=O)(=O)c2cccc(N)c2C#N)cc1 ; strain or isolate: IIIB ; method: cytopathic effect ; value: 2.4 µM
N=C1Sc2cc(C(F)(F)F)ccc2C2=NCCCN12 ; strain or isolate: IIIB ; method: MTT ; value: 6.2 µM
Nc1ncnc2c1ncn2[C@@H]1O[C@@H]2[C@H](O)CO[C@]2(CO)[C@H]1O ; value: >100 µM
CC(=O)Nc1cnc(Oc2c(Cl)cc(Cl)cc2Cl)nc1Nc1ccc(C#N)cc1 ; strain or isolate: RES056 ; method: MTT ; value: >33.16 µM
COc1cccc(-c2ccc3c(c2)SC(=N)N2CCCN=C32)c1 ; strain or isolate: IIIB ; method: MTT ; value: 0.35 µM
O=C(CCCCCCc1ncc2ccc(Cl)nn12)c1ccccc1 ; strain or isolate: RF ; method: cytopathic effect ; value: 1 µM
CC(C)OP(=O)(COCC1(Cn2ccc(N)nc2=O)CC=CC1)OC(C)C ; value: 20.5 µg/mL
Cc1ccnc2c1NC(=O)c1cccnc1N2C1CC1 ; strain or isolate: Recombinant ; changes: RT-L100I K103N ; method: cytopathic effect / MTT ; value: 1.452 µM
C[C@H](CC[C@H](O)C(C)(O)CO)[C@H]1CC[C@@]2(C)C3=CCC4C(C)(C)[C@@H](O)CC[C@]4(C)C3=CC[C@]12C ; method: cytopathic effect / microscopy ; value: >1000 µM
Cc1nc(CCCCCCC(=O)c2ccccc2)n2nc(N)ccc12 ; strain or isolate: RF ; method: cytopathic effect ; value: 0.89 µM
Cc1cn(C2C[C@H](N)[C@H](CO)O2)c(=O)[nH]c1=O ; strain or isolate: IIIB ; method: MTT / syncytia ; value: >1000 µM
N=C1Sc2cc(-c3ccccc3-c3ccccc3)ccc2C2=NCCCN12 ; strain or isolate: IIIB ; method: MTT ; value: 0.89 µM
Cc1cn([C@@H]2O[C@@H](CO)[C@H](N=[N+]=[N-])[C@@H]2O)c(=O)[nH]c1=O ; strain or isolate: IIIB ; method: MTT / syncytia ; value: >1000 µM
O=c1[nH]cnc2c1ncn2[C@H]1CC[C@@H](CO)O1 ; strain or isolate: RF ; method: cytopathic effect / MTT ; value: 7.63 µM
N=C1Sc2cc(-c3ccsc3)ccc2C2=NCCCN12 ; strain or isolate: IIIB ; method: MTT ; value: 0.43 µM
Cc1ccnc2c1NC(=O)c1cccnc1N2C1CC1 ; strain or isolate: NL4-3 ; method: cytopathic effect / MTT ; value: 0.02 µg/mL
C=C(/C=C/P(=O)(O)O)Cn1cnc2c(=O)[nH]c(N)nc21 ; strain or isolate: RF ; method: cytopathic effect / MTT ; value: >100 µM
CCCCc1ccc2c(c1)SC(=N)N1CCCN=C21 ; strain or isolate: IIIB ; method: MTT ; value: 5.9 µM
Cc1cc(Br)cc(C)c1Oc1ncc(NC(=O)C(F)(F)F)c(Nc2ccc(C#N)cc2)n1 ; strain or isolate: IIIB ; method: MTT ; value: 0.0533 µM
CC(=O)c1ccc(C)cc1NC(C(N)=O)c1c(Cl)cccc1Cl ; strain or isolate: IIIB ; method: MTT ; value: 0.046 µM

Rows are shuffled and stem from different studies.